Results as given in patent US20210324003A1.

Target: MT145K gp120 monomer
Assay: ELISA
Parameters: unit not given beside the values
Conditions: Fc fusion

Substance: Human CD4-IgG2 immunoadhesin (from UniProt P01730 26-204)
- EC50: 6.500 ?
